Data on nine compounds can be found in article PMC8653674, “Design, Synthesis, Docking Study and Biological Evaluation of 4-Hydroxy-2H-benzo[e][1,2]thiazine-3-carboxamide 1,1-dioxide Derivatives as Anti-HIV Agents” (Iranian Journal of Pharmaceutical Research : IJPR, 2021).

Values joined by “and” are separate entries in the source; they are usually repeats but may differ in a detail not shown here. Identical values can stand only once. Where only a bound is given, the exact number is not on record here.

This data set has as its system single-cycle replicable HIV NL4-3 virions in Hela cells. The experiment in a line: single cycle HIV-1 replication assay (inhibition of p24 expression, capture ELISA). Particulars: Selectivity Index, CC50/EC50 ratio. It is filed as cell-based. As to the method: The anti-HIV-1 activity of target compounds was evaluated in a single cycle replication assay evaluated in our laboratory and reported previously. In this assay, the single-cycle replicable HIV NL4-3 virions (200 ng p24) were inoculated concurrently with compounds in different concentrations to the Hela cells. The inhibition rate (%) of p24 expression was measured by capture ELISA (Biomerieux, France) 72 hours after inoculation. Percentage inhibition of p24 expression in treated culture was calculated as inhibition rate of p24 (%). The XTT (sodium3-[1(phenylaminocarbonyl)-3,4-tetrazolium]-bis(4-methoxy-6-nitro)benzene sulfonic acid) proliferation assay was conducted to evaluate the cellular toxicity according to the kit instructions. The cytotoxic concentration that reduced the number of viable cells by 50% (CC50) was calculated after the determination of p24 load in the HIV-1 replication assay plates ([37]-[40]).
Fourteen 1,2-benzothiazine-3-carboxamide 1,1-dioxide derivatives containing different substituents at N-2 positions (12 and 13a-m) were synthesized and evaluated to inhibit the single-cycle HIV replication inhibition HeLa cell culture. Cytotoxicity of compounds was also tested in the same cell line to ensure the safety of compounds. Raltegravir was used as a positive control. Anti-HIV activity and cytotoxicity of compounds were expressed as EC50 and CC50, respectively. Selectivity Index (SI) was calculated using CC50/EC50 ratio.
A general note: ELISA stands for enzyme-linked immunosorbent assay.

As to `Cc1ccccc1CN1C(C(N)=O)=C(O)c2ccccc2S1(=O)=O` [Compound 13e, 4-Hydroxy-2-(2-methylbenzyl)-2H-benzo[e][1,2]thiazine-3-carboxamide 1,1-dioxide], the SI was found to be 11.8. Take `NC(=O)C1=C(O)c2ccccc2S(=O)(=O)N1` [Compound 12, 4-hydroxy-2H-benzo[e][1,2]thiazine-3-carboxamide 1,1-dioxide]: the SI is 9.0. The figure for `NC(=O)C1=C(O)c2ccccc2S(=O)(=O)N1CC1CCCCC1` [Compound 13b, 2-(Cyclohexylmethyl)-4-hydroxy-2H-benzo[e][1,2]thiazine-3-carboxamide 1,1-dioxide] is 4. Next, `NC(=O)C1=C(O)c2ccccc2S(=O)(=O)N1Cc1cccc(F)c1` [Compound 13k, 2-(3-Fluorobenzyl)-4-hydroxy-2H-benzo[e][1,2]thiazine-3-carboxamide 1,1-dioxide]: 9.2; `NC(=O)C1=C(O)c2ccccc2S(=O)(=O)N1Cc1ccc([N+](=O)[O-])cc1` [Compound 13m, 4-Hydroxy-2-(4-nitrobenzyl)-2H-benzo[e][1,2]thiazine-3-carboxamide 1,1-dioxide]: > 26 and 26; `NC(=O)C1=C(O)c2ccccc2S(=O)(=O)N1Cc1ccccc1` [Compound 13c, 2-Benzyl-4-hydroxy-2H-benzo[e][1,2]thiazine-3-carboxamide 1,1-dioxide]: 13.3. Next, `CN1C(C(=O)Nc2ccccn2)=C(O)c2ccccc2S1(=O)=O` [Piroxicam, piroxicam, reference compound]: 7.5. Regarding `COc1cccc(CN2C(C(N)=O)=C(O)c3ccccc3S2(=O)=O)c1` [Compound 13f, 4-Hydroxy-2-(3-methoxybenzyl)-2H-benzo[e][1,2]thiazine-3-carboxamide 1,1-dioxide], the SI stood at 12.8. Consider `NC(=O)C1=C(O)c2ccccc2S(=O)(=O)N1Cc1ccccc1F` [Compound 13j, 2-(2-Fluorobenzyl)-4-hydroxy-2H-benzo[e][1,2]thiazine-3-carboxamide 1,1-dioxide], for which the SI is reported as 19.4.
